For experiment [1], the system named is Staphylococcus aureus. Kind of experiment: Ratio of test compound binding affinity to norfloxacin binding affinity to methicillin-resistant Staphylococcus aureus double stranded genomic DNA.
Experiment [2] concerns Staphylococcus aureus. Put plainly: Binding affinity to methicillin-resistant Staphylococcus aureus double stranded genomic DNA by spectroscopic analysis.

Regarding `CCn1cc(-c2csc(N)n2)c(=O)c2cc(N3CCCC3)c(Cl)cc21`, in the experiment on Staphylococcus aureus [1], the Ratio was found to be 1.5. In the experiment with Staphylococcus aureus [2], this compound came in with a K of 3.89 ×10³ L/mol.

(Values after ChEMBL document CHEMBL3822423 (J Med Chem, 2016).)
